Measurements: PubChem BioAssay AID651602 (The Scripps Research Institute Molecular Screening Center, 2012)
The entries are a selection whose mix differs from that of the whole data set. Some salts or complexes appear as unconnected parts, following the source record. The source made the active and inactive calls. Rule as the data show it: active = inhibition above about 11%; inactive = the rest.

experiment: reduced absorbance of E. coli cultures with phage – HTS, RecBCD inhibitor project, primary screen (AID 651602); details: growth absorbance, at 11.9 µM, stronger effect = higher value

| Compound | inhibition |
| --- | --- |
| O=C(OCCN1CCN(CCOCc2ccccc2)CC1)C(O)(c1ccccc1)c1ccccc1 | inactive: 1.56% |
| O=C(OC1CN2CCC1CC2)c1ccc([N+](=O)[O-])cc1 (stereo unspecified) | inactive: 3.3% |
| COc1ccc2c(c1O)-c1c(O)c(OC)cc3c1[C@H](C2)[N+](C)(C)CC3.O=[N+]([O-])c1cc([N+](=O)[O-])c([O-])c([N+](=O)[O-])c1[O-] | inactive: 2.84% |
| O=[N+]([O-])c1cc([N+](=O)[O-])c(Nc2ccc(Cl)cc2)c([N+](=O)[O-])c1 | inactive: -2.02% |
| CC(C)c1ccc(OP(C)(=O)Nc2ccc(SC(F)(F)F)cc2)cc1 (stereo unspecified) | inactive: 2.45% |
| CP(=O)(Nc1ccccc1F)Oc1ccccc1 (stereo unspecified) | inactive: -2.35% |
| CCN(CC)CCCOC(=O)C(O)(c1ccccc1)C1CCCCC1 (stereo unspecified) | inactive: 0.7% |
| Cc1c([N+](=O)[O-])cc([N+](=O)[O-])c(Br)c1[N+](=O)[O-] | inactive: 1.25% |
| CCCCCOc1ccc(NP(C)(=O)Oc2ccc(Cl)cc2Cl)cc1 (stereo unspecified) | inactive: 1.23% |
| O=[N+]([O-])c1cc([N+](=O)[O-])c(OC2CCCCC2O)c([N+](=O)[O-])c1 (stereo unspecified) | inactive: 2.69% |
| CP(=O)(Nc1ccccc1)Oc1ccc(F)cc1 (stereo unspecified) | inactive: 1.39% |
| CCN(CC)CCCNc1ccccc1[N+](=O)[O-].O=[N+]([O-])c1cc([N+](=O)[O-])c(O)c([N+](=O)[O-])c1 | inactive: 0.23% |
| COc1ccc(OP(C)(=O)Nc2ccc(SC(F)(F)F)cc2)cc1 (stereo unspecified) | inactive: 6.22% |
| CCOC(=O)c1ccc(NP(C)(=O)Oc2ccc(F)cc2)cc1 (stereo unspecified) | inactive: 1.19% |
| O=[N+]([O-])c1cc([N+](=O)[O-])c(NCC2CCS(=O)(=O)C2)c([N+](=O)[O-])c1 (stereo unspecified) | inactive: 3.25% |
| Cc1cc(-c2cccc3ccccc23)c(C)cn1.O=[N+]([O-])c1cc([N+](=O)[O-])c(O)c([N+](=O)[O-])c1 | inactive: 4.59% |
| O=[N+]([O-])c1ccc(OP2(=O)COCCO2)cc1 (stereo unspecified) | inactive: 1.91% |
| Cc1c(C(c2ccc3c(c2)OCO3)c2c(C)n(C)n(-c3ccccc3)c2=O)c(=O)n(-c2ccccc2)n1C.O=[N+]([O-])c1cc([N+](=O)[O-])c(O)c([N+](=O)[O-])c1 | inactive: -1.23% |
| COc1ccc(OP(C)(=O)Nc2cccc(Br)c2)cc1 (stereo unspecified) | inactive: 1.39% |
| COc1ccc(NP(C)(=O)Oc2ccccc2OC)cc1 (stereo unspecified) | inactive: 3.1% |
| CN(C)CCOC(=O)C(O)(c1ccccc1)C1CCCCC1 (stereo unspecified) | inactive: -0.82% |
